Results of unrelated studies side by side (data: NIAID ChemDB).

Shared fields: whole-cell or culture tests; agent: Staphylococcus aureus; endpoint: MIC

Lines come from different laboratories, so protocols vary.

{"SMILES": "CCCCCCCCCCCC[N+](C)(C)COCCCCCCCC", "strain": "ATCC 6538", "result": "0.77 µM"}
{"SMILES": "O=C1O[C@@H](COc2ccon2)CN1c1ccc(-n2cccc2)cc1", "strain": "078 (oxford)", "result": "4 µg/mL"}
{"SMILES": "CC[C@H]1OC(=O)[C@H](C)C(=O)[C@H](C)[C@@H](O[C@@H]2O[C@H](C)C[C@H](N(C)C)[C@H]2O)[C@](C)(OC)C[C@@H](C)C(=O)[C@H](C)[C@H]2N(CCCCn3cnc(-c4cccnc4)c3)C(=O)O[C@]12C", "strain": "27660 (erythromycin-resistant)", "result": "0.06 µg/mL"}
{"SMILES": "O=C1O[C@@H](COc2ccon2)CN1c1ccc(N2CCC(O)CC2)c(F)c1", "strain": "004 (methicillin quinolone-resistant)", "result": "4 µg/mL"}
{"SMILES": "CCCCCCCCCCCC[N+](C)(C)COC1CCCCC1", "strain": "ATCC33592", "result": "2.76 µM"}
{"SMILES": "COC(=S)NC[C@H]1CN(c2ccc3c(c2)-n2cccc2COC3)C(=O)O1", "strain": "ATCC 49951 (SMITH)", "result": "0.5 µg/mL"}
{"SMILES": "CC[C@H]1OC(=O)[C@H](C)C(=O)[C@H](C)[C@@H](O[C@@H]2O[C@H](C)C[C@H](N(C)C)[C@H]2O)[C@@]2(C)C[C@@H](C)C(=NC(C)=O)[C@H](C)C(OC/C(=C\\C#Cc3ccccc3)CO2)[C@]1(C)O", "strain": "33591 (erythromycin methicillin-resistant)", "result": ">64 µg/mL"}
{"SMILES": "CC(=O)NC[C@H]1CN(c2ccc3c(c2)OCc2nccn2-3)C(=O)O1", "strain": "25701", "result": "0.5 µg/mL"}
{"SMILES": "CC[C@H]1OC(=O)[C@H](C)C(=O)[C@H](C)[C@@H](O[C@@H]2O[C@H](C)C[C@H](N(C)C)[C@H]2O)[C@@]2(C)C[C@@H](C)C(=NC(C)=O)[C@H](C)C(OC/C(=C\\C#Cc3ccc(N)nc3)CO2)[C@]1(C)O", "strain": "33591 (erythromycin methicillin-resistant)", "result": ">64 µg/mL"}
{"SMILES": "CC[C@H]1OC(=O)[C@H](C)C(=O)[C@H](C)[C@@H](O[C@@H]2O[C@H](C)C[C@H](N(C)C)[C@H]2O)[C@@]2(C)C[C@@H](C)C(=NC(C)=O)[C@H](C)[C@@H](OC/C(=N\\OCCc3ccccc3)CO2)[C@]1(C)O", "strain": "33591 (erythromycin methicillin-resistant)", "result": ">64 µg/mL"}
{"SMILES": "CC(=O)NC[C@H]1CN(c2ccc(-c3ccn(C(C)=O)n3)c(F)c2)C(=O)O1", "strain": "UC6685 (methicillin-resistant)", "result": "4 µg/mL"}
{"SMILES": "CCCCCCCCCCCC[N+](C)(C)COC1CCCCCC1", "strain": "ATCC33592", "result": "13.3 µM"}
{"SMILES": "NCCCCCCCCCCNc1cc2c(cc1F)c(=O)c(C(=O)O)cn2C1CC1", "strain": "ATCC 5278 (methicillin-resistant)", "result": ">100 µg/mL"}
{"SMILES": "CC[C@H]1OC(=O)[C@H](C)C(=O)[C@H](C)[C@@H](O[C@@H]2O[C@H](C)C[C@H](N(C)C)[C@H]2O)[C@@]2(C)C[C@@H](C)C(=NC(C)=O)[C@H](C)[C@@H](OC/C(=N\\OCC#Cc3ncccn3)CO2)[C@]1(C)O", "strain": "27660 (erythromycin-resistant)", "result": "0.25 µg/mL"}
{"SMILES": "NCCCCCCCCNc1cc2c(cc1F)c(=O)c(C(=O)O)cn2C1CC1", "strain": "ATCC 5278 (methicillin-resistant)", "result": ">100 µg/mL"}
{"SMILES": "Cc1c(NCCO)c(F)cc2c(=O)c(C(=O)O)cn(-c3cc(N)c(F)cc3F)c12", "strain": "W806 (methicillin-resistant)", "result": "2 µg/mL"}
{"SMILES": "CC(=O)NC[C@H]1CN(c2ccc(-c3cnc(C(C)=O)s3)c(F)c2)C(=O)O1", "strain": "UC6685 (methicillin-resistant)", "result": "0.5 µg/mL"}
{"SMILES": "CNc1c(F)cc2c(=O)c(C(=O)O)cn(-c3cc(N)c(F)cc3F)c2c1C", "strain": "W806 (methicillin-resistant)", "result": "0.5 µg/mL"}
{"SMILES": "C=CCn1cc(-c2ccc(N3C[C@H](CNC(C)=O)OC3=O)cc2F)cn1", "strain": "UC6685 (methicillin-resistant)", "result": "2 µg/mL"}
{"SMILES": "CCCCC(=S)NC[C@H]1CN(c2ccc3c(c2)-n2cccc2COC3)C(=O)O1", "strain": "ATCC 29213 (MSSA)", "result": "16 µg/mL"}
{"SMILES": "CN1CCN(C)c2cc3c(cc21)c(=O)c(C(=O)O)cn3C1CC1", "strain": "ATCC 5278 (methicillin-resistant)", "result": ">100 µg/mL"}
{"SMILES": "O=C(CC(F)(F)F)NC[C@H]1CN(c2ccc3c(c2)-n2cccc2COC3)C(=O)O1", "strain": "ATCC 33591 (MRSA)", "result": "8 µg/mL"}
{"SMILES": "CC[C@H]1OC(=O)[C@H](C)C(=O)[C@H](C)[C@@H](O[C@@H]2O[C@H](C)C[C@H](N(C)C)[C@H]2O)[C@@]2(C)C[C@@H](C)C(=NC(C)=O)[C@H](C)C(OC/C(=N\\OCc3ccccc3)CO2)[C@]1(C)O", "strain": "33591 (erythromycin methicillin-resistant)", "result": ">64 µg/mL"}
{"SMILES": "Cn1cc(C(=O)O)c(=O)c2cc3cc(F)c(N4CCN(Cc5ccc(F)cc5)CC4)cc3nc21", "strain": "IP8203 (quinolone-sensitive)", "result": "0.5 µg/mL"}
{"SMILES": "CCCCCCCC[N+](C)(C)COCCC(C)CCCC(C)C", "strain": "ATCC33592", "result": "27.5 µM"}
{"SMILES": "CO/N=C1\\CN(c2nc3c(cc2F)c(=O)c(C(=O)O)cn3C2CC2)CC1CN", "strain": "KU2241", "result": "0.063 µg/mL"}
{"SMILES": "Cn1cc(C(=O)O)c(=O)c2cc3cc(F)c(N4CCCCCCC4)cc3nc21", "strain": "IP8203 (quinolone-sensitive)", "result": "1 µg/mL"}
{"SMILES": "CCCCCCCCCCCC[N+](C)(C)COC(CCC)CCC", "strain": "ATCC 6538", "result": "1.59 µM"}
{"SMILES": "Cc1c(NC(C)C)c(F)cc2c(=O)c(C(=O)O)cn(-c3cc(N)c(F)cc3F)c12", "strain": "W200 (methicillin-resistant)", "result": "0.008 µg/mL"}
{"SMILES": "CNC(=O)N[C@@H]1CCN(c2ccc(N3C[C@H](CNc4ccon4)OC3=O)cc2F)C1", "strain": "122 (novobiocin-resistant)", "result": "0.5 µg/mL"}
{"SMILES": "C=C1COC2[C@@H](C)C(=NC(C)=O)[C@H](C)C[C@@](C)(OC1)[C@H](O[C@@H]1O[C@H](C)C[C@H](N(C)C)[C@H]1O)[C@@H](C)C(=O)[C@@H](C)C(=O)O[C@H](CC)[C@@]2(C)O", "strain": "27660 (erythromycin-resistant)", "result": "2 µg/mL"}
{"SMILES": "O=C(CO)N[C@H]1CCN(c2ccc(N3C[C@H](COc4ccon4)OC3=O)cc2F)C1", "strain": "078 (oxford)", "result": "4 µg/mL"}
{"SMILES": "CCNCCCN(CC)c1cc2c(cc1F)c(=O)c(C(=O)O)cn2C1CC1", "strain": "ATCC 5278 (methicillin-resistant)", "result": "12.5 µg/mL"}
{"SMILES": "CC[C@H]1OC(=O)[C@H](C)C(=O)[C@H](C)[C@@H](O[C@@H]2O[C@H](C)C[C@H](N(C)C)[C@H]2O)[C@@]2(C)C[C@@H](C)C(=O)[C@H](C)C(OC/C=C/CO2)[C@]1(C)O", "strain": "29213 (erythromycin-susceptible)", "result": "2 µg/mL"}
{"SMILES": "CC(=O)NC[C@H]1CN(c2ccc(-c3csc(C)c3)c(F)c2)C(=O)O1", "strain": "UC6685 (methicillin-resistant)", "result": "2 µg/mL"}
{"SMILES": "CCOC(=O)NC[C@H]1CN(c2ccc3c(c2)-n2cccc2COC3)C(=O)O1", "strain": "ATCC 29213 (MSSA)", "result": "16 µg/mL"}
{"SMILES": "CC[C@H]1OC(=O)[C@H](C)C(=O)[C@H](C)[C@@H](O[C@@H]2O[C@H](C)C[C@H](N(C)C)[C@H]2O)[C@@]2(C)C[C@@H](C)C(=NC(C)=O)[C@H](C)C(OC/C(=C\\C=C\\c3cccc([N+](=O)[O-])c3)CO2)[C@]1(C)O", "strain": "33591 (erythromycin methicillin-resistant)", "result": "64 µg/mL"}
{"SMILES": "CCCCCCCCCCCC[N+](C)(C)COCCCCCCCCC", "strain": "ATCC33592", "result": "3.69 µM"}
{"SMILES": "CC[C@H]1OC(=O)[C@H](C)C(=O)[C@H](C)[C@@H](O[C@@H]2O[C@H](C)C[C@H](N(C)C)[C@H]2O)[C@@]2(C)C[C@@H](C)C(=NC(C)=O)[C@H](C)[C@@H](OC/C(=N\\Oc3ccc(-c4nccs4)nc3)CO2)[C@]1(C)O", "strain": "27660 (erythromycin-resistant)", "result": "0.13 µg/mL"}
{"SMILES": "COCCCNc1cc2c(cc1F)c(=O)c(C(=O)O)cn2C1CC1", "strain": "ATCC 6538P", "result": ">100 µg/mL"}
{"SMILES": "CCCCCCCCCCCC[N+](C)(C)COC1CCCC1", "strain": "ATCC 6538", "result": "1.44 µM"}
{"SMILES": "CC[C@H]1OC(=O)[C@H](C)C(=O)[C@H](C)[C@@H](O[C@@H]2O[C@H](C)C[C@H](N(C)C)[C@H]2O)[C@@]2(C)C[C@@H](C)C(=NC(C)=O)[C@H](C)[C@@H](OC/C(=N\\OCCCc3ccccc3)CO2)[C@]1(C)O", "strain": "27660 (erythromycin-resistant)", "result": "0.5 µg/mL"}
{"SMILES": "CCN(CC)CCN(CC)c1cc2c(cc1F)c(=O)c(C(=O)O)cn2C1CC1", "strain": "ATCC 6538P", "result": ">100 µg/mL"}
{"SMILES": "CC[C@H]1OC(=O)[C@H](C)C(=O)[C@H](C)[C@@H](O[C@@H]2O[C@H](C)C[C@H](N(C)C)[C@H]2O)[C@@]2(C)C[C@@H](C)C(=NC(C)=O)[C@H](C)C(OC/C(=C\\c3cnc4ccccc4c3)CO2)[C@]1(C)O", "strain": "33591 (erythromycin methicillin-resistant)", "result": ">64 µg/mL"}
{"SMILES": "CC(=S)NC[C@H]1CN(c2ccc3c(c2)-n2cccc2COC3)C(=O)O1", "strain": "ATCC 29213 (MSSA)", "result": "1 µg/mL"}
{"SMILES": "CCCCCCCCCCCCOC[N+](C)(C)CCCCCCCC", "strain": "ATCC 6538", "result": "1.28 µM"}
{"SMILES": "CC[C@H]1OC(=O)[C@H](C)C(=O)[C@H](C)[C@@H](O[C@@H]2O[C@H](C)C[C@H](N(C)C)[C@H]2O)[C@@]2(C)C[C@@H](C)C(=NC(C)=O)[C@H](C)[C@@H](OC/C(=N\\OCC#Cc3cncnc3)CO2)[C@]1(C)O", "strain": "25923 (erythromycin-susceptible)", "result": "0.25 µg/mL"}

The last 5 rows once more:

SMILES,strain,result
CCN(CC)CCN(CC)c1cc2c(cc1F)c(=O)c(C(=O)O)cn2C1CC1,ATCC 6538P,>100 µg/mL
CC[C@H]1OC(=O)[C@H](C)C(=O)[C@H](C)[C@@H](O[C@@H]2O[C@H](C)C[C@H](N(C)C)[C@H]2O)[C@@]2(C)C[C@@H](C)C(=NC(C)=O)[C@H](C)C(OC/C(=C\c3cnc4ccccc4c3)CO2)[C@]1(C)O,33591 (erythromycin methicillin-resistant),>64 µg/mL
CC(=S)NC[C@H]1CN(c2ccc3c(c2)-n2cccc2COC3)C(=O)O1,ATCC 29213 (MSSA),1 µg/mL
CCCCCCCCCCCCOC[N+](C)(C)CCCCCCCC,ATCC 6538,1.28 µM
CC[C@H]1OC(=O)[C@H](C)C(=O)[C@H](C)[C@@H](O[C@@H]2O[C@H](C)C[C@H](N(C)C)[C@H]2O)[C@@]2(C)C[C@@H](C)C(=NC(C)=O)[C@H](C)[C@@H](OC/C(=N\OCC#Cc3cncnc3)CO2)[C@]1(C)O,25923 (erythromycin-susceptible),0.25 µg/mL